Measured values from several laboratories, pooled; numbers as filed in NIAID ChemDB.

Shared fields: growth or infection tests; agent: Influenza B virus; cells: MDCK; endpoint: EC50

ECn is the concentration giving n% inhibition of infection, replication or growth. An empty or dashed field is not shown. Two numbers with a dash give a range or band. Conditions beyond the fields shown may differ between rows.

structure,strain or isolate,read by,value
NC1C2CCCC1CC2,-,plaque count,68 µM
CCC(CC)O[C@@H]1C=C(C(=O)O)C[C@H](N)[C@H]1NC(C)=O,Isolate G26,plaque count,0.05 µg/mL
CC=NC(=N)c1nc(-c2ccccc2)n(C/C=C/c2ccccc2)n1,Singapore,cytopathic effect,>20 µg/mL
CCC(CC)O[C@@H]1C=C(C(=O)O)C[C@H](N)[C@H]1NC(C)=O,B/Beijing/184/93,-,0.11 µM
CCCC(CCC)C(NC(C)=O)C1C(N=C(N)N)CC(C(=O)O)C1O,Beijing/184/93,-,0.02 µM
Cc1cc(NCC2(CO)CCC2)nc(N)n1,B/GIFU/2/73,plaque count,>140 µM
CC=NC(=N)c1nc(-c2ccc(OC)cc2)n(Cc2ccccc2)n1,Singapore,cytopathic effect,>100 µg/mL
CC1=C(C)C2C(N)C1[C@H](C(C)C)C[C@@H]2C,-,plaque count,37 µM
CC=NC(=N)c1nc(-c2ccccc2)n(COCCO)n1,Singapore,cytopathic effect,>100 µg/mL
CC1=C(C)C2C(N)C1[C@H](C(C)C)C[C@H]2C,-,plaque count,34 µM
Nc1ncc(/C=N/O)c(NCC2(CO)CC(CCc3ccccc3)C2)n1,B/GIFU/2/73,plaque count,0.25–0.51 µM
CC1=C(C)C2C(N)C1[C@@H](C(C)C)C[C@@H]2C,-,plaque count,35 µM
CC=NC(=N)c1nc(-c2ccc(C)cc2)n(C/C=C/c2ccccc2)n1,Singapore,cytopathic effect,>20 µg/mL
Nc1nc(Cl)cc(NCC2(CO)CCC(OCc3ccccc3)C2)n1,B/GIFU/2/73,plaque count,1.1–1.5 µM
CC[C@@H]1C2CCCC(C2N)[C@@H]1CC,-,plaque count,>100 µM
Nc1nc(Cl)c(N)c(NCC2(CO)CC(CCCc3ccccc3)C2)n1,B/GIFU/2/73,plaque count,0.016–0.027 µM
CC=NC(=N)c1nc(-c2cccc(OC)c2)n(COCCO)n1,Singapore,cytopathic effect,>200 µg/mL
CC(=O)N[C@H]1[C@H]([C@H](O)[C@H](O)CO)OC(C(=O)O)=C[C@@H]1N=C(N)N,B/MASS/3/66,plaque count,0.09 µM
CC(C)[C@H]1CCC2C(N)C1[C@@H](C)[C@H]2C,-,plaque count,61.6 µM
CC=NC(=N)c1nc(-c2cccc(OC)c2)n(C/C=C/c2ccccc2)n1,Singapore,cytopathic effect,>100 µg/mL
COc1cc(NCC2(CO)CCC2)nc(N)n1,B/GIFU/2/73,plaque count,50–55 µM
CCC1=C(CC)C2CCCC1C2N,-,plaque count,>100 µM
CCC(CC)[C@H](NC(C)=O)[C@@H]1C[C@@H](C(=O)O)C[C@H]1N=C(N)N,Harbin/07/94,-,0.16 µM
C=C(N=CC)c1nc(-c2cccc(OC)c2)n(C2O[C@H](CO)[C@@H](O)[C@H](O)[C@H]2O)n1,Singapore,cytopathic effect,>200 µg/mL
N#CNc1nncs1,B/Singapore/3/64,plaque count,1.37 µg/mL
CC=NC(=N)c1nc(-c2cccc(C)c2)n(Cc2ccccc2)n1,Singapore,cytopathic effect,>20 µg/mL
C[C@H]1C2CCCC(C)(C2N)[C@H]1C,-,plaque count,64.3 µM

Again, the opening 2 rows:

| structure | strain or isolate | read by | value |
|---|---|---|---|
| NC1C2CCCC1CC2 | - | plaque count | 68 µM |
| CCC(CC)O[C@@H]1C=C(C(=O)O)C[C@H](N)[C@H]1NC(C)=O | Isolate G26 | plaque count | 0.05 µg/mL |